According to patent US11279728B2, “Broad spectrum viral inhibitor” (Albert Einstein College of Medicine, priority 2017, dated 2022):

System: HEK293T cells
Experiment: Intracellular ddhCTP in HEK293T cells transfected with Hs viperin / Hs CMPK2 (LC/MS)

## Nc1ccn([C@@H]2OC(COP(=O)(O)OP(=O)(O)OP(=O)(O)O)=C[C@@H]2O)c(=O)n1 (stereo in doubt) [ddhCTP, 3′-deoxy-3′,4′-didehydro-cytidine triphosphate]
HEK293T cotransfected with viperin and CMPK2 plasmids, 48 h
  intracellular ddhCTP level: ~330 µM
HEK293T transfected with Hs viperin plasmid, 16-h post transfection
  intracellular ddhCTP level: ~75 µM
HEK293T transfected with Hs viperin plasmid, after 72 h
  intracellular ddhCTP level: ~35 µM
